Reference: patent publication US20220267415A1 (University of Texas, published 2022)
Where two headings read alike, the source gives them in different places.

What was measured:
Assay in all cases: cell-based or functional assay
[1] = target: T1, P.1 Gamma variant spike protein on recombinant USA-WA1/2020 virus (SARS-CoV-2)
[2] = target: T1, P.1 Gamma variant spike protein on …; remark: listed apart in the source
[3] = target: B.1.617.2 Delta variant spike protein on recombinant USA-WA1/2020 virus (SARS-CoV-2)
[4] = target: AY.4.2 (Delta subvariant) spike protein on recombinant USA-WA1/2020 virus (SARS-CoV-2)

B1: anti-SARS-CoV2-14 IgG (full lambda light chain) (antibody, V domains shown)
VH: EVQLQQSGPGLVKPSQTLSLTCAISGDSVSSNSAAWNWIRQSPSRGLEWLGRTYYRSKWYNDYAVSVKSRITINPDTSKNQFSLQLNSVTPEDTAVYYCAREEQQLVHDYYYYGMDVWGQGTMVTVSS
VL: QAVVTQPASVSGSPGQSITISCTGTSSDIGAYNYISWYQQHPGKAPKLIIYEVSNRPSGISYRFSGSKSGNTASLTISGLQAEDEANYYCSSYAGSISFGGGTKVTVL
Neutralization EC50 (PRNT) [1]: 12.6 µg/mL | Neutralization EC50 (PRNT) [2]: 13 µg/mL | Neutralization EC50 (PRNT) [3]: 0.57 µg/mL | Neutralization EC50 (PRNT) [4]: 0.44 µg/mL
